Columns and labels:
[1] = system: autoclaved Aspergillus niger; assay: Changes in concentrations of compounds in grapefruit juice incubated with autoclaved Aspergillus niger for 4 days (HPLC); details: for Concentrations in grapefruit juice in the presence (+) of autoclaved Aspergillus niger / Concentrations in grapefruit juice in the absence (−) of autoclaved Aspergillus niger: 100 mL grapefruit juice, 4 days, 25° C.; for Concentrations in grapefruit juice in the presence (+) of autoclaved Aspergillus niger: 2 g (fresh weight) autoclaved A. niger; for Concentrations in grapefruit juice in the absence (−) of autoclaved Aspergillus niger: no fungus; for Share of compound in grapefruit juice bound to dead A. niger: autoclaved A. niger, 4 days (Table 1)
[2] = system: autoclaved Aspergillus niger; assay: Recycle experiment: second treatment of grapefruit juice with autoclaved Aspergillus niger; details: for Remained in GFJ compared to control GFJ: after first and second 3 g of autoclaved A. niger, 4 hr each; for Additionally removed from pre-incubated GFJ: second 3 g autoclaved A. niger, 4 hr, 50 mL GFJ pre-treated with 3 g for 4 hr
[3] = system: Saccharomyces cerevisiae; assay: Removal of nonpolar furanocoumarins in grapefruit juice by autoclaved, dried yeast; details: 3 g autoclaved, air-dried S. cerevisiae, 50 mL grapefruit juice, 4 hr, 25° C.

| SMILES | Concentrations in grapefruit juice in the presence (+) of autoclaved Aspergillus niger [1] [ppm] | Concentrations in grapefruit juice in the absence (−) of autoclaved Aspergillus niger [1] [ppm] | Share of compound in grapefruit juice bound to dead A. niger [1] | Remained in GFJ compared to control GFJ [2] [%] | Additionally removed from pre-incubated GFJ [2] | Removal [3] [%] |
| --- | --- | --- | --- | --- | --- | --- |
| CC(=CCOc1c2ccoc2cc2oc(=O)ccc12)CCC(O)C(C)(C)O (stereo not shown) [6′,7′-dihydroxybergamottin] | 1.72 | 2.46 | ~30% | 16 | approximately 25% | 73 |
| C[C@@H]1O[C@@H](O[C@H]2[C@H](Oc3cc(O)c4c(c3)O[C@H](c3ccc(O)cc3)CC4=O)O[C@H](CO)[C@@H](O)[C@@H]2O)[C@H](O)[C@H](O)[C@H]1O [Naringin] | 47.36 | 45.62 | – | – | – | – |
| CC(C)=CCC/C(C)=C/COc1ccc2ccc(=O)oc2c1 [7-geranyloxycoumarin] | 0.13 | 0.33 | – | – | – | – |
| CC(C)=CCC/C(C)=C/COc1c2ccoc2cc2oc(=O)ccc12 [Bergamottin] | 0.39 | 1.75 | – | – | ~16% | 91 |
| COc1cc(/C=C/C(=O)O)ccc1O [Ferulic acid] | 0.48 | 0.43 | – | – | – | – |
| COc1ccc([C@@H]2CC(=O)c3c(O)cc(O[C@@H]4O[C@H](CO)[C@@H](O)[C@H](O)[C@H]4O[C@@H]4O[C@@H](C)[C@H](O)[C@@H](O)[C@H]4O)cc3O2)cc1O [Neohesperidin] | 2.40 | 2.17 | – | – | – | – |
| C/C(=C\COc1c2ccoc2cc2oc(=O)ccc12)CCC1OC1(C)C (stereo not shown) [6′,7′-epoxybergamottin] | 0.05 | 0.57 | Approximately 87% | 6 | ~26% | 82 |
| C[C@@H]1O[C@@H](OC[C@H]2O[C@@H](Oc3cc(O)c4c(c3)O[C@H](c3ccc(O)cc3)CC4=O)[C@H](O)[C@@H](O)[C@@H]2O)[C@H](O)[C@H](O)[C@H]1O [Narirutin] | 9.16 | 8.47 | – | – | – | – |
| COc1ccc([C@@H]2CC(=O)c3c(O)cc(O[C@@H]4O[C@H](CO)[C@@H](O)[C@H](O)[C@H]4O[C@@H]4O[C@@H](C)[C@H](O)[C@@H](O)[C@H]4O)cc3O2)cc1 [Poncirin] | 2.14 | 2.29 | – | – | – | – |

Reference: patent US8343559B1, “Furanocoumarin removal from grapefruit juice by edible fungal hyphae” (The United States of America as represented by the …, priority 2008, dated 2013)
